Data taken from PMC9146215, “Design of D-Amino Acids SARS-CoV-2 Main Protease Inhibitors Using the Cationic Peptide from Rattlesnake Venom as a Scaffold” (Pharmaceuticals, 2022).

What was measured:
SARS-CoV-2 3CL^pro [1] = target: T1, SARS-CoV-2 3CL^pro (Severe acute respiratory syndrome coronavirus 2, UniProt P0DTD1); assay: Determination of inhibition mode (Lineweaver-Burk plot); assay type: biochemical; conditions: 0.5 µM 3CLpro, 30 min incubation at RT, triplicate
T1 construct: SARS-CoV-2 3CL^pro (Uniprot entry: P0DTD1, virus strain: hCoV-19/Wuhan/WIV04/2019) was cloned, expressed, and purified; GST (cleaved yes); made in house; host or cells: E. coli Lemo21 (DE3)
Procedure: The inhibition mode was determined using different final concentrations of the inhibitors and substrate. […] The remaining L-peptides were not tested.
Briefly, 0.5 µM SARS-CoV-2 3CL^pro was incubated with the inhibitor, in various concentrations, for 30 min at RT. Subsequently, the reaction was initiated by adding the corresponding concentration series of the substrate. The data were analysed using a Lineweaver-Burk plot; therefore, the reciprocal of velocity (1/V) vs the reciprocal of the substrate concentration (1/[S]) was compared. All measurements were performed in triplicate, and data are presented as mean ± SD.

SARS-CoV-2 3CL^pro [2] = target: T1, SARS-CoV-2 3CL^pro; assay: Inhibitor stability over 24 h (24 h inhibition experiment); assay type: biochemical; conditions: 0.5 µM 3CLpro with 5 µM peptide, 1/2 h to 24 h at RT, triplicate
Procedure: Briefly, 0.5 µM SARS-CoV-2 3CL^pro was incubated with 5 µM of the peptide and incubated for 1/2 h, 1 h, 2 h, 3 h, 4 h, 5 h, and 24 h at RT. The control was performed with the 3CL^pro in the absence of the peptide and measured together after each time point. Subsequently, the reaction was initiated by the addition of the substrate. All measurements were performed in triplicate, and data are presented as mean ± SD.

SARS-CoV-2 3CL^pro [3] = target: T1, SARS-CoV-2 3CL^pro; assay: Detergent-based (Triton X-100) control assay for aggregation-based promiscuous inhibition; assay type: biochemical; conditions: 0.001%, 0.01%, 0.1% Triton X-100; four peptide concentrations; triplicate
Procedure: A detergent-based control assay was performed to exclude inhibitors that possibly act as aggregators of the 3CL^pro by adding 0.001%, 0.01%, and 0.1% of Triton X-100 to the reaction. […] All measurements were performed in triplicate, and data are presented as mean ± SD.

Vero CCL-81 cells = assay: MTT cell viability assay; assay type: cell-based, African green monkey; conditions: n = 3
Procedure: Therefore, Vero cells were cultivated in DMEM medium supplemented with 2% fetal calf serum (FCS) and 1% penicillin/streptomycin. A total of 2000 cells per well in a volume of 100 µL were seeded on flat-bottomed 96-well plates (VWR, Radnor, USA) and incubated in a 95% humidified atmosphere with 5% CO2 at 37 °C for 24 h. Subsequently, the cells were treated with 0.2, 1, 5, 10, 25, 50, and 98 µM of each molecule at 37 °C with 5% CO2 for 24 h.
According to the manufacturer’s instructions, cell viability was measured using the Cell Proliferation Kit I (Roche, Basel, Switzerland) in a 3-fold determination. The absorbance of the formazan product was determined by measuring the absorption at 570 nm and subtracted by the absorbance at 690 nm in a microplate reader (BMG Labtech, Ortenberg, Germany). The results were normalised to the mean value of cells treated with medium only. As a […] control for cytotoxicity, 0.1% Triton X-100 diluted in the medium was used. Cell viability was calculated according to Equation (2):(T/C) × 100%(2) where T and C represented the optical density of the treated well and control groups, respectively.

[4] = system: SARS-CoV-2 B1.1 isolate (NRW-42) in Vero cells; assay type: cell-based
SARS-CoV-2 3CL^pro [5] = target: T1, SARS-CoV-2 3CL^pro; assay: SARS-CoV-2 3CLpro fluorogenic (DABCYL/EDANS substrate) inhibition assay; assay type: biochemical; conditions: dose-dependent study, 0.5 µM 3CLpro, n = 3
Procedure: The SARS-CoV-2 3CL^pro activity assay was performed using DABCYL-KTSAVLQ/SGFRKME-EDANS (Bachem, Switzerland) as substrate.
SARS-CoV-2 3CL^pro activity assay was performed using a fluorogenic substrate DABCYL-KTSAVLQ↓SGFRKME-EDANS (Bachem, Bubendorf, Switzerland) in a buffer containing 20 mM Tris pH 7.2, 200 mM NaCl, 1 mM EDTA, and 1 mM TCEP [31, 32, 33, 34]. The reaction mixture was pipetted in a Corning 96-well plate (Merck, Darmstadt, Germany) containing 0.5 µM protein. The assay was initiated with the addition of the substrate at a final concentration of 50 µM. The fluorescence intensities were measured at 60 s intervals over 30 min using an Infinite 200 PRO plate reader (Tecan, Männedorf, Switzerland), and the temperature was set to 37 °C. […]
For the final inhibition assays, 0.5 µM of the protein was mixed with 0–300 µM Cro, 0–150 µM L-CDPs, and 0–125 µM D-CDPs and subsequently incubated for 30 min at RT. […] When the substrate with a final concentration of 50 µM was added to the mixture, the fluorescence intensities were measured at 60 s intervals over 30 min using an Infinite 200 PRO plate reader (Tecan, Männedorf, Switzerland). […]
The IC50 value was calculated by plotting the initial velocity against various concentrations of the combined molecules using a dose-response curve in GraphPad Prism5 software (Tecan, Männedorf, Switzerland). […]

SMILES	Inhibition Type (SARS-CoV-2 3CL^pro [1])	Inhibition of SARS-CoV-2 3CLpro over 24 h (stability of inhibitor) (SARS-CoV-2 3CL^pro [2])	Aggregation-based inhibition (inhibition diminished by detergent) (SARS-CoV-2 3CL^pro [3])	Cytotoxic effect at the calculated IC50 concentrations (Vero CCL-81 cells)	Viral RNA in cell culture supernatant [4]	Concentration giving 100% protease inhibition (SARS-CoV-2 3CL^pro [5]) [µM]
COC(=O)[C@@H](CCCCN)NC(=O)[C@@H](CCCCN)NC(=O)[C@@H](CS)NC(=O)[C@@H](CO)NC(=O)[C@@H](CCCCN)NC(=O)[C@@H](Cc1c[nH]c2ccccc12)NC(=O)[C@@H](CCCNC(=N)N)NC(=O)[C@@H](Cc1c[nH]c2ccccc12)NC(=O)[C@@H](CCCNC(=N)N)NC(=O)[C@@H](CS)NC(=O)[C@@H](CC(=O)O)NC(=O)[C@@H](CCSC)NC(=O)[C@@H](CCCCN)NC(C)=O [D-CDP7]	Competitive	constant inhibition	not observed	no cytotoxic effect	significant decrease in viral RNA	–
COC(=O)[C@H](CCCCN)NC(=O)[C@H](CCCCN)NC(=O)[C@H](CS)NC(=O)[C@H](CO)NC(=O)[C@H](CCCCN)NC(=O)[C@H](Cc1c[nH]c2ccccc12)NC(=O)[C@H](CCCNC(=N)N)NC(=O)[C@H](Cc1c[nH]c2ccccc12)NC(=O)[C@H](CCCNC(=N)N)NC(=O)[C@H](CS)NC(=O)[C@H](CC(=O)O)NC(=O)[C@H](CCSC)NC(=O)[C@H](CCCCN)NC(C)=O [L-CDP7]	Competitive	constant inhibition	not observed	–	–	–
COC(=O)[C@H](CCCCN)NC(=O)[C@H](CCCCN)NC(=O)[C@H](CO)NC(=O)[C@H](CS)NC(=O)[C@H](CCCCN)NC(=O)[C@H](Cc1c[nH]c2ccccc12)NC(=O)[C@H](CCCNC(=N)N)NC(=O)[C@H](Cc1c[nH]c2ccccc12)NC(=O)[C@H](CCCNC(=N)N)NC(=O)[C@H](CS)NC(=O)[C@H](CC(=O)O)NC(=O)[C@H](CCSC)NC(=O)[C@H](CCCCN)NC(C)=O [L-CDP8]	Competitive	–	–	–	–	60
